Results of unrelated studies side by side (data: NIAID ChemDB).

Common to all: tests in culture; organism: Candida albicans; read by: broth dilution; measure: MIC

Lines come from different laboratories, so protocols vary.

smiles,strain or isolate,value
COc1ccc([C@H]2SCC(=O)N2c2nc(N3CCN(C)CC3)n[nH]2)cc1OC,A39,10 µg/mL
Nn1c(SCC(O)(Cn2cncn2)c2ccc(F)cc2F)nnc1-c1cccc(Br)c1,IRFC 37,>64 µg/mL
C[C@H]1[C@H](O)[C@@H](C)/C=C/C=C/C=C/C=C/C=C/C=C/C=C/[C@H](O[C@@H]2O[C@H](C)[C@@H](O)[C@H](N)[C@@H]2O)C[C@@H]2O[C@](O)(C[C@@H](O)C[C@@H](O)CC[C@H](O)[C@@H](O)C[C@@H](O)CC(=O)O[C@H]1C)C[C@H](O)[C@H]2C(=O)O,ATCC 18804,0.09 µM
OC(CCn1ccnc1)c1ccc(-c2ccccc2)cc1,RTCC 1003,>64 µg/mL
Clc1ccc(OC(Cn2cc(C3CCCCC3)nn2)c2ccc(Cl)cc2Cl)cc1,ATCC90027,>256 µg/mL
O=C(CCn1ccnc1)c1cccc(C(O)c2ccc(Cl)cc2)c1,RTCC1024,64 µg/mL
O=C(CSc1nnc(-c2ccc(N=Cc3cccs3)cc2)o1)Nc1ccccc1,MTCC 227,500 µg/mL
OC(CCn1ccnc1)c1cccc(C(O)c2ccc(Cl)c(Cl)c2)c1,RTCC1024,32 µg/mL
Nc1cccc(-c2cn(CC(Oc3ccc(Cl)cc3)c3ccc(Cl)cc3Cl)nn2)c1,ATCC90027,>256 µg/mL
O=C(CCn1ccnc1)c1cccc(C(O)c2ccc(Br)cc2)c1,RTCC1024,>64 µg/mL
C[C@@H]1[C@@H](COCC(=O)O)C[C@@H](O[C@H]2[C@H](O)[C@@H](N(Cc3ccc(O)cc3)CC(O)C[N+](C)(C)C)[C@H](O[C@H]3[C@H](O)[C@@H](N(Cc4ccc(O)cc4)CC(O)C[N+](C)(C)C)[C@H](C)O[C@@H]3COCC(=O)O)O[C@@H]2COCC(=O)O)[C@H](N(Cc2ccc(O)cc2)CC(O)C[N+](C)(C)C)[C@H]1O,RCMB 05031,42.25 µg/mL
CN1CCN(c2n[nH]c(N3C(=O)CS[C@@H]3c3ccc4c(c3)OCO4)n2)CC1,159.95,1.58 µg/mL
O=C(N/N=C/c1cc2ccccc2nc1Cl)c1sc(=S)n(-c2ccccc2)c1/N=C/c1ccccc1Cl,MTCC 227,500 µg/mL
COc1ccc([C@H]2SCC(=O)N2c2nc(N3CCOCC3)n[nH]2)cc1OC,A39,>100 µg/mL
O=C(CSc1nnc(-c2ccc(N=Cc3cccs3)cc2)o1)Nc1ccc(F)cc1,MTCC 227,1000 µg/mL
O=C(CCn1ccnc1)c1ccc(-c2ccccc2)cc1,RTCC 1003,8 µg/mL
O=C1CS[C@H](c2ccc3c(c2)OCO3)N1c1nc(N2CCOCC2)n[nH]1,A39,1.04 µg/mL
Cc1ccc(-c2nnc(SCC(O)(Cn3cncn3)c3ccc(F)cc3F)n2N)cc1,ATCC 18804,>64 µg/mL
CCC(C)CC(C)CCCCCCCCC(=O)N[C@H]1C[C@@H](O)[C@H](NCCN)NC(=O)[C@@H]2[C@@H](O)CCN2C(=O)[C@H]([C@H](O)CCN)NC(=O)[C@H]([C@H](O)[C@@H](O)c2ccc(O)cc2)NC(=O)[C@@H]2C[C@@H](O)CN2C(=O)[C@H]([C@@H](C)O)NC1=O,W1016,1 µg/mL
O=C(CCn1ccnc1)c1ccc(Cl)cc1,RTCC1024,>64 µg/mL
O=C(CSc1nnc(-c2ccc(N=Cc3cccs3)cc2)o1)Nc1ccccc1Cl,MTCC 227,500 µg/mL
O=C(N/N=C/c1cc2ccccc2nc1Cl)c1sc(=S)n(-c2ccccc2)c1/N=C/c1ccccc1,MTCC 227,500 µg/mL
C[C@@H]1[C@@H](COCC(=O)O)C[C@@H](O[C@H]2[C@H](O)[C@@H](N(Cc3ccc([N+](=O)[O-])cc3)CC(O)C[N+](C)(C)C)[C@H](O[C@H]3[C@H](O)[C@@H](N(Cc4ccc([N+](=O)[O-])cc4)CC(O)C[N+](C)(C)C)[C@H](C)O[C@@H]3COCC(=O)O)O[C@@H]2COCC(=O)O)[C@H](N(Cc2ccc([N+](=O)[O-])cc2)CC(O)C[N+](C)(C)C)[C@H]1O,RCMB 05031,6.5 µg/mL
O=C(CSc1nnc(-c2ccc(N=Cc3cccs3)cc2)o1)Nc1ccccc1[N+](=O)[O-],MTCC 227,250 µg/mL
O=C(N/N=C/c1cc2ccccc2nc1Cl)c1sc(=S)n(-c2ccccc2)c1/N=C/c1ccccc1F,MTCC 227,500 µg/mL
C[C@@H]1[C@@H](COCC(=O)O)C[C@@H](O[C@H]2[C@H](O)[C@@H](N(Cc3ccc(Br)cc3)CC(O)C[N+](C)(C)C)[C@H](O[C@H]3[C@H](O)[C@@H](N(Cc4ccc(Br)cc4)CC(O)C[N+](C)(C)C)[C@H](C)O[C@@H]3COCC(=O)O)O[C@@H]2COCC(=O)O)[C@H](N(Cc2ccc(Br)cc2)CC(O)C[N+](C)(C)C)[C@H]1O,RCMB 05031,15.25 µg/mL
COc1ccc(-c2nnc(SCC(O)(Cn3cncn3)c3ccc(Cl)cc3Cl)n2N)cc1,IRFC 36,>64 µg/mL
CN(C)c1ccc(/C=N/c2c(C(=O)N/N=C/c3cc4ccccc4nc3Cl)sc(=S)n2-c2ccccc2)cc1,MTCC 227,1000 µg/mL
Cc1ccc([C@H]2SCC(=O)N2c2nc(N3CCN(C)CC3)n[nH]2)cc1,A39,10 µg/mL
O=C(CCn1ccnc1)c1cccc(C(O)c2ccc(Cl)c(Cl)c2)c1,RTCC 1003,64 µg/mL
COc1ccc(-c2nnc(SCC(O)(Cn3cncn3)c3ccc(F)cc3F)n2N)cc1,IRFC 36,>64 µg/mL
COc1ccc([C@H]2SC(C)C(=O)N2c2nc(N3CCN(C)CC3)n[nH]2)cc1OC,A39,100 µg/mL
O=C(N/N=C/c1cc2ccccc2nc1Cl)c1sc(=S)n(-c2ccccc2)c1/N=C/c1ccc(O)cc1,MTCC 227,>1000 µg/mL
Nn1c(SCC(O)(Cn2cncn2)c2ccc(Cl)cc2Cl)nnc1-c1ccc(O)cc1,PTCC 6027,>64 µg/mL
C[C@@H]1[C@@H](COCC(=O)O)C[C@@H](O[C@H]2[C@H](O)[C@@H](N(Cc3ccc(Cl)cc3)CC(O)C[N+](C)(C)C)[C@H](O[C@H]3[C@H](O)[C@@H](N(Cc4ccc(Cl)cc4)CC(O)C[N+](C)(C)C)[C@H](C)O[C@@H]3COCC(=O)O)O[C@@H]2COCC(=O)O)[C@H](N(Cc2ccc(Cl)cc2)CC(O)C[N+](C)(C)C)[C@H]1O,RCMB 05031,25 µg/mL
O=C(N/N=C/c1cc2ccccc2nc1Cl)c1sc(=S)n(-c2ccccc2)c1/N=C/c1cccc(O)c1,MTCC 227,250 µg/mL

A second listing of 2 rows from above:

| smiles | strain or isolate | value |
|---|---|---|
| O=C(N/N=C/c1cc2ccccc2nc1Cl)c1sc(=S)n(-c2ccccc2)c1/N=C/c1cccc(O)c1 | MTCC 227 | 250 µg/mL |
| COc1ccc([C@H]2SCC(=O)N2c2nc(N3CCOCC3)n[nH]2)cc1OC | A39 | >100 µg/mL |